# Data published in patent US9382276B2, “Water-soluble O-carbonyl phosphoramidate prodrugs for therapeutic administration” (MicuRx Pharmaceuticals, Inc., priority 2014, dated 2016).
# Tested on: Staphylococcus aureus strain SAU1018
# Experiment: mouse peritonitis infection model (survival, ED50)
# Assay type: in vivo
# Details: for ED50 (effective dose for survival of 50% of animals): intravenous injection, sodium salt in saline solution, S. aureus SAU1018 mouse infection
Compound,ED50 (effective dose for survival of 50% of animals),"ED50 (solution administered orally, sodium salt form, mouse S. aureus infection)"
CC(=O)OP(=O)(O)N(C[C@H]1CN(c2cc(F)c(N3C=CC(=O)CC3)c(F)c2F)C(=O)O1)c1ccon1,10 mg/kg,about 8 mg/kg
O=C1C=CN(c2c(F)cc(N3C[C@H](CN(c4ccon4)P(=O)(O)O)OC3=O)c(F)c2F)CC1,about 10 mg/kg,
CCOC(=O)CCC(=O)OP(=O)(O)N(C[C@H]1CN(c2cc(F)c(N3C=CC(=O)CC3)c(F)c2F)C(=O)O1)c1ccon1,10 mg/kg,
